PubChem BioAssay AID624099 – ICCB-Longwood – 2012

Assay: 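Host factors E2 relies on to silence an HPV18 LCR reporter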 (primary screen)
System: human C33A cervical carcinoma cells (HPV-negative) stably expressing BPV1 E2 and an HPV18 LCR luciferase reporter
Reagents: siRNA pool against human genes, 40 nM
Time to read-out: 72 h
Measurement: 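HPV18 LCR reporter light per well, converted to plate-wise z-scores that exclude control wells, and averaged over triplicate plates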
Direction: mean z-score and z-score: higher = stronger reporter signal, weaker E2 silencing
Hit rule: 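Mean z ≥ 2 together with z ≥ 2 in two or more of the three replicates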
The deposit covers about 21,000 reagents; shown is an unselected part. Over the whole deposit, 497 (2.4%) were called active. 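Higher z means weaker E2 silencing; only reporter increases were scored, and knock-downs that hurt cell survival may mask genuine repressor factors.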 The numbers tell different reagents against one gene apart.

| Gene | reagent no. | mean z-score | z-score, replicate A | z-score, replicate B | z-score, replicate C | Outcome |
| --- | --- | --- | --- | --- | --- | --- |
| STMND1 | 1 | -0.67 | -0.94 | -0.32 | -0.75 | inactive |
| SLC47A1 | 1 | -0.79 | -1.08 | -0.67 | -0.6 | inactive |
| H2AC14 | 1 | -1.48 | -1.21 | -1.58 | -1.66 | inactive |
| CYP7A1 | 1 | 0.92 | 0.73 | 0.87 | 1.16 | inactive |
| AQP4 | 1 | -0.19 | -0.07 | -0.18 | -0.33 | inactive |
| ZNF793 | 1 | 0.62 | 0.74 | 0.52 | 0.6 | inactive |
| CHMP3 | 1 | -0.34 | -0.17 | -0.37 | -0.46 | inactive |
| MSLN | 1 | 2.09 | 2.09 | 1.75 | 2.43 | active |
| GXYLT1 | 1 | 0.42 | 0.35 | 0.45 | 0.46 | inactive |
| ARHGAP29 | 1 | -1.36 | -1.21 | -1.46 | -1.41 | inactive |
| BAG6 | 1 | -0.18 | 0.2 | -0.11 | -0.63 | inactive |
| CD44 | 1 | -0.2 | -0.29 | -0.18 | -0.12 | inactive |
| CFAP276 | 1 | -1.01 | -1.25 | -1.09 | -0.69 | inactive |
| CFAP276 | 2 | -0.72 | -0.34 | -0.91 | -0.91 | inactive |
| CENPV | 1 | 0.89 | 0.99 | 1.27 | 0.41 | inactive |
| SPAG1 | 1 | -0.48 | -0.5 | -0.66 | -0.27 | inactive |
| NLRP11 | 1 | 0.39 | 0.53 | 0.49 | 0.15 | inactive |
| FGFRL1 | 1 | -1.88 | -1.66 | -2.09 | -1.87 | inactive |
| POPDC3 | 1 | 0.91 | 0.74 | 1.35 | 0.63 | inactive |
| ERCC4 | 1 | -1.28 | -1.68 | -1.09 | -1.06 | inactive |
| VPS52 | 1 | -0.37 | 0.01 | -0.5 | -0.62 | inactive |
| PDLIM3 | 1 | 0.13 | -0.28 | 0.13 | 0.56 | inactive |
| PATZ1 | 1 | -0.23 | -0.28 | -0.14 | -0.27 | inactive |
| ADAM32 | 1 | -0.27 | -0.51 | 0.07 | -0.36 | inactive |
| SP100 | 1 | -0.61 | -0.97 | -0.5 | -0.35 | inactive |
| GATM | 1 | 1.55 | 1.93 | 1.49 | 1.22 | inactive |
| GDNF | 1 | 0.03 | 0.03 | 0.15 | -0.1 | inactive |
| RPL18A | 1 | -1.42 | -1.35 | -1.29 | -1.61 | inactive |
| P2RX3 | 1 | 1.87 | 1.62 | 2.27 | 1.71 | inactive |
| TEX41 | 1 | 0.52 | 0.2 | 1 | 0.34 | inactive |
| SEMG1 | 1 | -0.17 | -0.35 | -0.09 | -0.08 | inactive |
| LOC388735 (retired record) | 1 | 0.06 | -0.78 | 0.25 | 0.71 | inactive |
| KRTAP19-1 | 1 | -1.18 | -1.06 | -1.41 | -1.08 | inactive |
| IL5 | 1 | -0.79 | -0.94 | -0.69 | -0.73 | inactive |
| S100A5 | 1 | 0.19 | 0.27 | 0.06 | 0.24 | inactive |
| PIN1P1 | 1 | -0.17 | -0.36 | 0 | -0.14 | inactive |
| PRC1 | 1 | 0.8 | 1.21 | 0.3 | 0.89 | inactive |
| ACP1 | 1 | -1.39 | -1.32 | -1.42 | -1.42 | inactive |
| BCRP2 | 1 | 0.39 | 0.23 | 0.12 | 0.82 | inactive |
